Source: patent US20130202608A1 (TEMASEK LIFE SCIENCES LABORATORY, published 2013)

Legend:
Assay in all cases: cell-based or functional assay
[1] = target: T1, hemagglutinin of A/Hongkong/156/97 (H5N1, clade 0) (influenza A virus A/Hongkong/156/97 …, UniProt O56140 17-568)
[2] = target: T2, hemagglutinin of A/goose/Guiyang/337/06 (H5N1, clade 4) (influenza A virus …)
[3] = target: T3, hemagglutinin of A/chicken/Henan/12/04 (H5N1, clade 8) (influenza A virus A/chicken/Henan/12/04 …)
[4] = target: T4, hemagglutinin of RG-A/Hong Kong/213/2004 (H5N1, clade 1) (influenza A virus A/Hong Kong/213/2004 …)
[5] = target: T1, hemagglutinin of A/Hongkong/156/97 …; remark: listed apart in the source
[6] = target: T2, hemagglutinin of A/goose/Guiyang/337/06 …; remark: listed apart in the source
[7] = target: T3, hemagglutinin of A/chicken/Henan/12/04 …; remark: listed apart in the source
[8] = target: T4, hemagglutinin of RG-A/Hong …; remark: listed apart in the source

B1: murine monoclonal antibody 4C2 (antibody, V domains shown)
VH: QESGAELVRPGASVKLSCKDSGYTFTTYWMNWVKQRPEQGLEWIGRIDPYDSETHYNQKFKDKAILTVDKSSNTAYMQLSSLTSEDSAVYYCVRGGSTVAYFGVWGQG
VL: MTQSPSSMSVSLGDTVSITCHASQDISGHIGWLQQKPGKSFKGLIYHGTNLEDGVPSRFSGSGSGADFSLTISSLESEDFADYYCVQYVQFPWTFGGGTK
B1 was tested, and the HI titer [1] was 256 titer (mAb at 1 mg/ml), the HI titer [2] was 256 titer (mAb at 1 mg/ml) and the HI titer [3] was 512 titer (mAb at 1 mg/ml). The HI titer [4] was 256 titer (mAb at 1 mg/ml), the “Microneutralization titers against H5N1 strains” value (“Microneutralization titers” for short) [5] was 320 titer (mAb at 1 mg/ml; 100 TCID50 of virus) and the “Microneutralization titers” value [6] was 320 titer (mAb at 1 mg/ml; 100 TCID50 of virus). For the same binder, the “Microneutralization titers” value [7] was 640 titer (mAb at 1 mg/ml; 100 TCID50 of virus) and the “Microneutralization titers” value [8] was 320 titer (mAb at 1 mg/ml; 100 TCID50 of virus).
